A mixed list of measured activities; the numbers were collected in NIAID ChemDB.

Common to all: tests in culture; agent: Mycobacterium avium

Conditions beyond the fields shown may differ between rows. An empty or dashed field is not shown. ECn is the concentration giving n% inhibition of infection, replication or growth. A number after MIC or MFC names an inhibition level or a share of isolates. For "inactive" no cut-off is given. Inhibition is in % at the dose shown (toxicity tests: loss of growth or viability).

smiles	measure	method	conditions	strain or isolate	dose	value
C[C@@H]1CN(c2c(F)c(N)c3c(=O)c(C(=O)O)cn(C4CC4)c3c2F)C[C@H](C)N1	Median MIC			ATCC 25291		8 µg/mL
C[C@H]1COc2c(N3C[C@@H](N)C4(CCC4)C3)c(F)cc3c(=O)c(C(=O)O)cn1c23	Mean MIC			4 strains		2.3 µg/mL
CNC(=O)Nc1ccc(S(=O)(=O)Nc2cc(C)on2)cc1	MIC100	broth dilution / absorbance	21 d	330/88		125 µM
C[C@H]1COc2c(N3C[C@@H](N)C(C)(C)C3)c(F)cc3c(=O)c(C(=O)O)cn1c23	Mean MIC			4 strains		5.5 µg/mL
NC[C@@H]1O[C@H](O[C@H]2[C@@H](O)[C@H](O[C@@H]3[C@@H](O)[C@H](N)C[C@H](N)[C@H]3O[C@H]3O[C@H](CO)[C@@H](O)[C@H](O)[C@H]3N)O[C@@H]2CO)[C@H](N)[C@@H](O)[C@@H]1O	Mean MIC			ATCC 25291		11.5 µg/mL
CN[C@@H]1[C@H](O[C@H]2[C@H](O[C@H]3[C@H](O)[C@@H](O)[C@H](N=C(N)N)[C@@H](O)[C@@H]3N=C(N)N)O[C@@H](C)[C@]2(O)C=O)O[C@@H](CO)[C@H](O)[C@H]1O	MIC			3090		8 µg/mL
CCCNC(=O)Nc1ccc(S(=O)(=O)Nc2cc(C)on2)cc1	MIC100	broth dilution / absorbance	14 d	330/88		1000 µM
C=C[C@]1(C)C=C2[C@H](O)C[C@@H]3C(C)(CCC[C@@]3(C)CO)[C@H]2CC1	inhibition			ITM1812	100 µg/mL	inactive
Cc1cc(O)c2c(c1)C(=O)C=CC2=O	MFC					300 µg/mL
Cc1cc(NS(=O)(=O)c2ccc(NC(=O)Nc3ccc(S(=O)(=O)Nc4cc(C)on4)cc3)cc2)no1	MIC100	broth dilution / absorbance	14 d	330/88		32 µM
O=C1C=CC(=O)C=C1	MBC			MAC104		200 µg/mL
CC1COc2c(N3CCN(C)CC3)c(F)cc3c(=O)c(C(=O)O)cn1c23	MIC50			13 strains		16 µg/mL
CCN(CC)c1nc2c(s1)c1c(O)c3c(O)c(C)c4c(c32)C(=O)[C@@](C)(O/C=C/[C@H](OC)[C@@H](C)[C@@H](OC(C)=O)[C@H](C)[C@H](O)[C@H](C)[C@@H](O)[C@@H](C)/C=C/C=C(/C)C(=O)N1)O4	MIC50			50 strains		0.45 µg/mL
COc1c(N2CCNC(C)C2)c(F)cc2c(=O)c(C(=O)O)cn(C3CC3)c12	Mean MIC			4 strains		2.3 µg/mL
CC[C@H]1OC(=O)[C@H](C)[C@@H](O[C@H]2C[C@@](C)(OC)[C@@H](O)[C@H](C)O2)[C@H](C)[C@@H](O[C@@H]2O[C@H](C)C[C@H](N(C)C)[C@H]2O)[C@](C)(OC)C[C@@H](C)C(=O)[C@H](C)[C@@H](O)[C@]1(C)O	MBC	broth dilution / radiometric	pH 6.8	1854		8 µg/mL
N[C@@H]1CONC1=O	MIC			3090		16 µg/mL
C[C@H]1COc2c(N3CC[C@@H](CNC4CC4)C3)c(F)cc3c(=O)c(C(=O)O)cn1c23	Mean MIC			4 strains		7.8 µg/mL
Cc1cc(-c2cc3c(cc2F)c(=O)c(C(=O)O)cn3C2CC2)cc(C)n1	MIC50			55 strains		1.8 µg/mL
CC[C@@H](CO)NCCN[C@@H](CC)CO	MIC50			9 isolates (HIV+)		>16 µg/mL
CCNC(=O)Nc1ccc(S(=O)(=O)Nc2cc(C)on2)cc1	MIC100	broth dilution / absorbance	14 d	330/88		1000 µM
CO[C@H]1/C=C/O[C@@]2(C)Oc3c(C)c(O)c4c(O)c(c5c(c4c3C2=O)NC2(CCN(CC(C)C)CC2)N=5)=NC(=O)/C(C)=C\C=C\[C@H](C)[C@H](O)[C@@H](C)[C@@H](O)[C@@H](C)[C@H](OC(C)=O)[C@@H]1C	MIC			Isolate 90-0969		>1 µg/mL
NCC[C@H](O)C(=O)N[C@@H]1C[C@H](N)[C@@H](O[C@H]2O[C@H](CN)[C@@H](O)[C@H](O)[C@H]2O)[C@H](O)[C@H]1O[C@H]1O[C@H](CO)[C@@H](O)[C@H](N)[C@H]1O	MIC50			9 isolates (HIV+)		64 µg/mL
CN[C@H]1CCN(c2c(F)cc3c(=O)c(C(=O)O)cn4c3c2OC[C@@H]4C)C1	Mean MIC			4 strains		17.2 µg/mL
CCC[C@@H]1C[C@@H](C(=O)N[C@@H]([C@H]2O[C@H](SC)[C@H](O)[C@@H](O)[C@H]2O)[C@@H](C)O)N(C)C1	Median MIC			ATCC 25291		128 µg/mL
CCCCCCCCCCNC(=O)Nc1ccc(S(=O)(=O)Nc2cc(C)on2)cc1	MIC100	broth dilution / absorbance	14 d	330/88		125 µM
CC(=O)O[C@H]1C[C@@]2(C)[C@@H](C[C@@H](O)[C@H]3[C@@]4(C)CC[C@@H](O)[C@@H](C)[C@@H]4CC[C@@]32C)/C1=C(\CCC=C(C)C)C(=O)O	Median MIC			ATCC 25291		20 µg/mL
CC1=C(C)C(=O)c2ccccc2C1=O	MBC			MAC104		400 µg/mL
CC(C)N=c1cc2n(-c3ccc(Cl)cc3)c3ccccc3nc-2cc1Nc1ccc(Cl)cc1	MIC			1435		0.5 µg/mL
Oc1ccc(O)cc1	MBC			MAC104		3200 µg/mL
C[C@H]1COc2c(N3CCN(C)CC3)c(F)cc3c(=O)c(C(=O)O)cn1c23	MBC	broth dilution		N-444		16 µg/mL
CCCCCCNC(=O)Nc1ccc(S(=O)(=O)Nc2cc(C)on2)cc1	MIC100	broth dilution / absorbance	14 d	330/88		250 µM
CCc1cc(C(N)=S)ccn1	MIC			3090-C clarithromycin-resistant		4 µg/mL
CC1=CC(=O)c2c(O)cccc2C1=O	MFC					>1000 µg/mL
COc1c(N2CCNC(C)C2)c(F)cc2c(=O)c(C(=O)O)cn(C3CC3)c12	MBC	broth dilution		N-444		4 µg/mL
CCn1cc(C(=O)O)c(=O)c2cc(F)c(-n3cccc3)cc21	EC50		pH 6.8			>3 µg/mL

A second listing of 3 rows from above:

CC[C@H]1OC(=O)[C@H](C)[C@@H](O[C@H]2C[C@@](C)(OC)[C@@H](O)[C@H](C)O2)[C@H](C)[C@@H](O[C@@H]2O[C@H](C)C[C@H](N(C)C)[C@H]2O)[C@](C)(OC)C[C@@H](C)C(=O)[C@H](C)[C@@H](O)[C@]1(C)O ; measure: MBC ; method: broth dilution / radiometric ; conditions: pH 6.8 ; strain or isolate: 1854 ; value: 8 µg/mL
CCNC(=O)Nc1ccc(S(=O)(=O)Nc2cc(C)on2)cc1 ; measure: MIC100 ; method: broth dilution / absorbance ; conditions: 14 d ; strain or isolate: 330/88 ; value: 1000 µM
NCC[C@H](O)C(=O)N[C@@H]1C[C@H](N)[C@@H](O[C@H]2O[C@H](CN)[C@@H](O)[C@H](O)[C@H]2O)[C@H](O)[C@H]1O[C@H]1O[C@H](CO)[C@@H](O)[C@H](N)[C@H]1O ; measure: MIC50 ; strain or isolate: 9 isolates (HIV+) ; value: 64 µg/mL